Results of unrelated studies side by side (data: NIAID ChemDB).

All rows: whole-cell or culture tests; organism: Plasmodium falciparum; endpoint: EC50

ECn is the concentration giving n% inhibition of infection, replication or growth.

structure,strain,cell line,value
Cc1cccc(OCCNC(=O)c2cccc(Cl)c2)c1,Dd2,,26.6 µM
COc1cc2c(cc1O)[C@@H]1Cc3ccc(OC)c(O)c3CN1CC2,K1CB1,,1.04 µg/mL
C=C1CN2CCC34c5ccccc5N5C=C([C@H]6CC7C8=C(CCN7C/C6=C/C)C6C=CC=CC6N8)[C@@H](O)[C@@H]([C@H]53)[C@H]1C[C@]24O,3D7,,3.651 µg/mL
OCCNc1nc(NCCCCNc2ccnc3cc(Cl)ccc23)nc(N2CCOCC2)n1,D6,,0.19 µM
CN1CCC(N2CCN(C(=O)CC3CCC4(CC3)OOC3(OO4)C4CC5CC(C4)CC3C5)CC2)CC1,3D7,,0.0015 µM
O=C(NCCOc1ccc2ccccc2c1)c1ccccc1O,Dd2,,3 µM
OCCCNc1nc(NCCCCNc2ccnc3cc(Cl)ccc23)nc(N2CCOCC2)n1,D6,,0.22 µM
C/C=C1/CN2CCC34c5ccccc5N5C(OC)C67OC(C([C@H]53)[C@H]1C[C@H]24)N1c2ccccc2C2(CCN3C/C(=C/C)[C@@H]6C[C@H]32)[C@@H]17,W2,,0.326 µg/mL
OCCNc1nc(NCCNc2ccnc3cc(Cl)ccc23)nc(N2CCCCC2)n1,D6,,0.19 µM
C[C@H]1[C@@H](OC(=O)CCC(=O)O)O[C@@H]2O[C@@]3(C)CC[C@H]4[C@H](C)CC[C@@H]1[C@@]24OO3,D10,,0.006 µM
Cc1cccc(SCCNC(=O)c2ccccc2Cl)c1,Dd2,,32 µM
OCCCNc1nc(NCCCNc2ccnc3cc(Cl)ccc23)nc(N2CCOCC2)n1,D6,,0.63 µM
Cc1cccc(OCCNC(=O)c2ccc(O)cc2Cl)c1,Dd2,,17.8 µM
CCN(CC)CCCC(C)Nc1ccnc2cc(Cl)ccc12,D6,,0.05 µM
C=C[C@H]1CN2CC[C@H]1C[C@H]2[C@H](O)c1ccnc2ccccc12,Dd2,,0.09 µM
C[n+]1c2ccccc2c(NC2CCNCC2)c2[nH]c3ccccc3c21.[Cl-],K1,,0.1 µM
CCN(CC)CCCC(C)Nc1ccnc2cc(Cl)ccc12,D10,,0.03 µM
CC1(C)O[C@@H]1COc1c2occc2cc2ccc(=O)oc12,CQ-resistant,RBC,2.5 µg/mL
CCO[C@H]1O[C@@H]2OC3(C)CC[C@H]4[C@H](C)CC[C@@H]([C@H]1C)[C@@]24OO3,W2,,0.005 µg/mL
COc1cc2c(cc1O)[C@@H]1Cc3ccc4c(c3CN1CC2)OCO4,K1CB1,,1.22 µg/mL
Cc1c2ccncc2c(C)c2c1[nH]c1ccccc12,K1,,0.81 µM
OCCCCNc1nc(NCCNc2ccnc3cc(Cl)ccc23)nc(N2CCOCC2)n1,D6,,0.48 µM
O[C@H](c1cc(C(F)(F)F)nc2c(C(F)(F)F)cccc12)[C@@H]1CCCCN1,RSA11,,0.008 µM
C/C=C1/CN2CCC34c5ccccc5N5C=C6[C@H]7C[C@@H]8N(CCC89c8ccccc8N(C=C([C@H]1C[C@H]23)[C@H]54)[C@@H]69)C/C7=C/C,3D7,,1.824 µg/mL
Cc1cccc(OCCNC(=O)c2ccc([N+](=O)[O-])cc2Cl)c1,Dd2,,50 µM
O=C(CC1CCC2(CC1)OOC1(OO2)C2CC3CC(C2)CC1C3)N1CCC(N2CCCC2)CC1,3D7,,0.0012 µM
C[C@@H]1CC[C@H]2[C@@H](C)C(=O)O[C@@H]3OC4(C)CC[C@@H]1[C@]32OO4,D6,,0.014 µM
O=C(NCCOc1ccc2c(c1)CCCC2)c1ccccc1Cl,Dd2,,2.5 µM
CN1CCc2cc3c(cc2C(=O)Cc2ccc4c(c2C1)OCO4)OCO3,K1CB1,,1.38 µg/mL
Cc1cccc(OCCNC(=O)c2ccccc2F)c1,Dd2,,10.5 µM
C[n+]1c2ccccc2cc2[nH]c3ccccc3c21.O=S(=O)([O-])C(F)(F)F,K1,,0.8 µM
O=C(CC1CCC2(CC1)OOC1(OO2)C2CC3CC(C2)CC1C3)N1CCOCC1,3D7,,0.0052 µM

2 of the rows above, restated:

structure | strain | cell line | value
CCO[C@H]1O[C@@H]2OC3(C)CC[C@H]4[C@H](C)CC[C@@H]([C@H]1C)[C@@]24OO3 | W2 |  | 0.005 µg/mL
Cc1cccc(OCCNC(=O)c2ccc([N+](=O)[O-])cc2Cl)c1 | Dd2 |  | 50 µM

Blank or dashed fields: not listed here. Lines come from different laboratories, so protocols vary.